Compound potency records, mixed from different reports. Data source: NIAID ChemDB in PubChem.

Common to all: whole-cell or culture tests; organism: Mycobacterium avium

Neighbouring rows are from separate reports.

compound | strain or isolate | setting | measure | value
Fc1ccc(C(Cn2ccnc2)NC/C=C/c2ccccc2)cc1 | 103317 | - | MIC | 24.9 µM
O=C(Nc1cccc(Cl)c1)c1ncccc1O | CNCTC MY330/88 | - | MIC | 32 µM
Cc1ccc(CNC(=S)c2ccccc2O)cc1 | MY330/88 | - | MIC | 0.25 µg/mL
CCS/C(N)=N\N=C\c1ccc(C(F)(F)F)cc1 | Clinical isolates | - | Geometric mean MIC | 8.78 µg/mL
CCCCCCOc1ccccc1NC(=O)OCCN(C)C | MY330/88 | - | MIC | 32 µM
Clc1ccc(CNc2cccc(-n3ccnc3)c2)cc1 | 103317 | - | MIC | 13.4 µM
CCCCOc1ccc(NC(=O)OCCN(C)C)cc1 | MY330/88 | - | MIC | 62.5 µM
c1ccc(-c2ccc(CNc3cccc(N4CCOCC4)c3)cc2)cc1 | 103317 | - | MIC | >16 µg/mL
CCCCCCCCCC(O)CC(=O)CCc1ccc(O)c(OC)c1 | - | - | MIC | 25 µg/mL
CCOc1ccc(NC(=O)OCC[NH+]2CCCC2)cc1 | MY330/88 | - | MIC | 1000 µM
O=C(Nc1cccc(Br)c1)c1ccc(Cl)cc1OS(=O)(=O)c1ccccc1 | 330/88 | 14 d | MIC | 250 µM
C=Cc1cn(COC(CO)CO)c(=O)[nH]c1=O | ATCC 25291 | - | EC50 | >100 µg/mL
Cc1ccc(O)c(C(=S)NCc2ccc(C(C)(C)C)cc2)c1 | MY330/88 | - | MIC | 1 µg/mL
Fc1ccc(/C(Cn2ccnc2)=N/OC/C=C/c2ccccc2)cc1 | 103317 | - | MIC | 23.8 µM
CCCCCCOc1cccc(NC(=O)OCCN(C)C)c1 | MY330/88 | - | MIC | 32 µM
CCCCCCCCCCC#Cc1cn(COCCO)c(=O)n(C#CCCCCCCCCCC)c1=O | ATCC 25291 | - | EC50 | >100 µg/mL
CN1CCN(c2ccc(NCc3ccc(Cl)cc3)cc2)CC1 | 103317 | - | MIC | >16 µg/mL
Clc1ccc(CNc2ccccc2-n2ccnc2)cc1 | 103317 | - | MIC | 26.9 µM
CCCCCCOc1cccc(NC(=O)OCCN2CCCCC2)c1 | MY330/88 | - | MIC | 16 µM
CCCCCN1C(=S)C(=O)c2ccccc21 | CNCTC D5/93 | - | MIC | 32 µM
O=C(Nc1ccc(Br)cc1)c1ccccc1O | CNCTC MY330/88 | - | MIC | 31 µM
[N-]=[N+]=NC(CCl)c1cn(COC(CO)CO)c(=O)[nH]c1=O | ATCC 25291 | - | EC50 | >100 µg/mL
Oc1cc(Cl)cc(Cl)c1C(=S)NCc1ccc(Cl)c(Cl)c1 | MY330/88 | - | MIC | 62.5 µg/mL
CCOC(=O)C(=O)N=Nc1c(S)n(CC)c2ccccc12 | CNCTC MY66/72 | - | MIC | >1000 µM
CC(C)N=C(N)/N=C(\N)NOCCCOc1ccc(Cl)c(Cl)c1 | Farino | - | MIC | <0.1 µg/mL
O=C(Nc1cccc(Br)c1)c1cc(Cl)ccc1OS(=O)(=O)c1ccccc1 | 330/88 | 14 d | MIC | 16 µM
CCCCCC#Cc1cn(COCCO)c(=O)[nH]c1=O | ATCC 25291 | - | EC50 | >100 µg/mL
c1ccc(-c2ccc(COC(Cn3ccnc3)c3ccccc3)cc2)cc1 | 103317 | - | MIC | 22.6 µM
O=C1C(=S)N(Cc2ccccc2)c2ccccc21 | CNCTC MY66/72 | - | MIC | 63 µM
O=C(NCc1ccc(F)cc1)c1ncccc1S | CNCTC MY330/88 | - | MIC | 16 µM
[N-]=[N+]=NC(CI)c1cn(COC(CO)CO)c(=O)[nH]c1=O | ATCC 25291 | - | EC50 | >100 µg/mL
c1ccc(CO/N=C(/Cn2ccnc2)c2ccccc2)cc1 | 103317 | - | MIC | 1.72 µM
Oc1cc(Cl)ccc1C(=S)NCc1ccccc1 | MY330/88 | - | MIC | 8 µg/mL
Clc1ccc(C(Cn2ccnc2)NCc2cccc3ccccc23)cc1 | 103317 | - | MIC | 22.1 µM
O=C(Nc1cccc(N2CCSCC2)c1)c1ccc(-c2ccccc2)cc1 | 103317 | - | MIC | >16 µg/mL
O=C(Nc1cccc(Cl)c1)c1cc(Cl)ccc1OS(=O)(=O)c1ccccc1 | 330/88 | 14 d | MIC | 32 µM
CCCCCCCOc1cccc(NC(=O)OCCN2CCOCC2)c1 | MY330/88 | - | MIC | 32 µM
O=C(Nc1ccc(C(F)(F)F)cc1)c1ccc(Cl)cc1OS(=O)(=O)c1ccccc1 | 330/88 | 14 d | MIC | 250 µM
c1ccc(-c2ccc(CNc3ccc(N4CCSCC4)cc3)cc2)cc1 | 103317 | - | MIC | >16 µg/mL
Cc1cn(COCCO)c(=O)[nH]c1=O | ATCC 25291 | - | EC50 | >100 µg/mL
O=C(Nc1ccc(Br)cc1)c1cc(Cl)ccc1OS(=O)(=O)c1ccccc1 | 330/88 | 14 d | MIC | 32 µM
Fc1ccc(/C(Cn2ccnc2)=N/OCc2ccc(-c3ccccc3)cc2)cc1 | 103317 | - | MIC | 20.7 µM
Nc1cn(COCCO)c(=O)[nH]c1=O | ATCC 25291 | - | EC50 | >100 µg/mL
Cc1ccc(CNC(=S)c2cc(C)ccc2O)cc1 | MY330/88 | - | MIC | 0.25 µg/mL
CN1C(=S)C(=O)c2ccccc21 | CNCTC D5/93 | - | MIC | 63 µM
Oc1ccccc1C(=S)NCc1ccc(F)cc1 | MY330/88 | - | MIC | 1 µg/mL
NNC(=O)c1ccncc1 | 1854-4 | - | MIC | 1.25 µg/mL
Cc1ccc(O)c(C(=O)NCc2ccc(Cl)cc2)c1 | MY330/88 | - | MIC | 62.5 µg/mL
O=C(NCc1ccc(Cl)c(Cl)c1)c1ncccc1S | CNCTC MY330/88 | - | MIC | 32 µM
COc1ccc(O)c(C(=O)NCc2cccc(Cl)c2)c1 | MY330/88 | - | MIC | 62.5 µg/mL
O=C(NCc1ccc(Br)cc1)c1ncccc1S | CNCTC MY330/88 | - | MIC | 8 µM

3 of the rows above, restated:

Oc1ccccc1C(=S)NCc1ccc(F)cc1 ; strain or isolate: MY330/88 ; measure: MIC ; value: 1 µg/mL
CCCCCN1C(=S)C(=O)c2ccccc21 ; strain or isolate: CNCTC D5/93 ; measure: MIC ; value: 32 µM
CN1CCN(c2ccc(NCc3ccc(Cl)cc3)cc2)CC1 ; strain or isolate: 103317 ; measure: MIC ; value: >16 µg/mL

ECn: concentration that inhibits the pathogen or its effect by n%. Blank or dashed fields: not listed here.